Data: US20250090441A1 (THE UNIVERSITY OF HONG KONG, priority 2023, published 2025)

Test: Remineralizing effects on enamel, chemical pH cycling model (SEM-EDS, Micro-CT, XRD)
Design: species or system human
Conditions: 160 μM, after pH cycling
Experimental: Ten enamel slices were cut from extracted sound human molars. Each slice was separated into four blocks. A total of 40 enamel blocks were prepared. Then the surface of the enamel block was half-covered by an acid-resistant varnish. The exposed half was the experimental surface, and the varnished half was the internal control. Before use, all the enamel blocks were sterilized via autoclave (Niu et al. 2021d; Yu et al. 2018).
The pH-cycling procedure (16 h-demineralization at pH 4.5 and 8 h-remineralization at pH 7.0) was performed to enamel blocks for 8 days. The formula for demineralizing/remineralizing solution was employed from a previous study (Yu et al. 2018). […]
The structure of the enamel surface was examined using SEM (n=8 per group) (Niu et al. 2021d). […] The calcium to phosphorus molar ratio was calculated (Niu et al. 2022). The mineral loss and lesion depth on the enamel blocks were assessed using microcomputed tomography (Micro-CT) (1076, SkyScan, Antwerp, Belgium) (n=8 per group) (Niu et al. 2022). The diffraction patterns of the enamel blocks were evaluated using X-ray diffraction analysis (XRD) (Rigaku SmartLab 9 kW, […]) (n=2 per group) (Yu et al. 2018).

O=C(O)c1cc(O)c(O)c(O)c1 [GA, Gallic Acid]
X-ray diffraction reflection peak at full width and half maximum: 0.342 °
